PMC10075959 (Science Advances, 2023)

These compounds were tested on LRS peptide self-association (coiled-coil oligomerization).
Type: binding

Compared with “MASGGGETALALLLLDRLNQLESKVSGKGQQQ [SARS-CoV-1]”, RQPASTVKPDMAEEIAALVLAKLGKDAGQPKQV [MHV] is higher in “total free energy of trimerization ΔGtrimer” value: -8.863 kcal/mol for the first, -8.4 kcal/mol for the second.

Compared with `CC(C)C[C@H](NC(=O)[C@H](C)NC(=O)[C@H](CC(C)C)NC(=O)[C@@H](NC(=O)[C@@H](NC(=O)[C@H](C)NC(=O)[C@H](C)NC(=O)[C@@H](NC(=O)[C@H](CC(C)C)NC(=O)[C@H](CC(=O)O)NC(=O)[C@H](CO)NC(=O)[C@H](CO)NC(=O)[C@H](CO)NC(=O)[C@H](CCC(N)=O)NC(=O)[C@H](CC(N)=O)NC(=O)[C@H](CO)NC(=O)[C@H](CC(=O)O)NC(=O)[C@H](CO)NC(=O)[C@H](CCCNC(=N)N)NC(=O)[C@@H](N)[C@@H](C)O)C(C)C)C(C)C)[C@@H](C)O)C(=O)N[C@@H](CCCCN)C(=O)N[C@@H](CC(N)=O)C(=O)N[C@@H](CC(C)C)C(=O)NCC(=O)N[C@@H](Cc1ccccc1)C(=O)N[C@@H](CC(=O)O)C(=O)N[C@@H](CC(N)=O)C(=O)N[C@@H](CCC(N)=O)C(=O)N[C@@H](CO)C(=O)N[C@@H](CCCCN)C(=O)N[C@@H](CO)C(=O)N1CCC[C@H]1C(=O)N[C@@H](CO)C(=O)N[C@@H](CO)C(=O)N[C@@H](CO)C(=O)NCC(=O)N[C@H](C(=O)O)[C@@H](C)O` [NL63], “NERLPKSNSKQSNQDDIMAAVAAALEKLGFERPNDASQPQKKQNKGTPKPSR [229E-related bat]” is higher in “total free energy of trimerization ΔGtrimer” value: -10.5 kcal/mol for the first, -9.7 kcal/mol for the second.

No end group written: not given here.
